# According to patent publication US20210054055A1:
# Target: PRV (Zika virus)
substance,measurement,value
EDE1 mAb C10 (antibody),FRNT50 (focus reduction neutralization on Vero cells),40.3 ng/mL
